Assay results published in patent US20040002582A1 (University of Texas, published 2004).

Target: T1, OHF-E-D3 (Omsk hemorrhagic fever virus), Q7T6D2
T1 chain: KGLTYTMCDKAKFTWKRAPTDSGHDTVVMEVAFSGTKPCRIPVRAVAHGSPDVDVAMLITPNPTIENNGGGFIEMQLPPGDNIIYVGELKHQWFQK

Binder: RCCHPQCKEGKKCR (designed binder, modifications not checked) [MP-100C]
- Kd: 30 µM

Binder: RCCHPQCKEGKKCR (designed binder, modifications not checked) [MP-100N]
- Kd: 16 µM
